Pooled drug test results. Numbers come from NIAID ChemDB, via PubChem.

All rows: tests in culture; agent: HIV-1; cell line: CEM; endpoint: EC50

An empty or dashed field is not shown. ECn is the concentration giving n% inhibition of infection, replication or growth. Lines come from different laboratories, so protocols vary. a–b is a range or a potency band.

| structure | strain | changes | read by | setting | value |
|---|---|---|---|---|---|
| CCC1=C(C(=O)OCC2CCCCC2)C(c2cc(F)cc(F)c2)NC(=O)N1 |  |  | p24 / ELISA |  | >5 µM |
| O=C(O)c1cn(C2CC2)c2cc(N3CCN(CN4C(=O)O[C@](C#CC5CC5)(C(F)(F)F)c5cc(Cl)ccc54)CC3)c(F)cc2c1=O | IIIB |  | MTT |  | 0.00447 µM |
| Cc1cccc(C)c1NC(=O)c1ccc(N)cc1 | IIIB |  | syncytia |  | >165 µM |
| CC1=C(C(=O)Nc2ccc(F)c(C(=O)OC(C)C)c2)SCCO1 | TSAO-resistant (RT E138K) | RT-E138K | syncytia |  | >10 µg/mL |
| O=C(Nc1ncccn1)c1ccccc1SSc1ccccc1C(=O)Nc1ncccn1 |  |  | cytopathic effect / XTT |  | >6.2 µM |
| CCCCC(=O)c1ccc2c(c1)sc(=O)n2CCN1CCCCC1 | IIIB |  | syncytia |  | >8 µg/mL |
| Cc1cccc(C)c1N1C(=O)c2ccc([N+](=O)[O-])cc2C1=O | IIIB |  | syncytia |  | >667 µM |
| CC1=C(C(=O)Nc2ccc(Cl)c(C(=O)OC3CCCCC3C)c2)SCCO1 | TIBO-resistant (RT L100I) | RT-L100I | syncytia |  | 3.5 µg/mL |
| NC12CC3CC(CC(C3)C1C(=O)c1ccccc1C(=O)O)C2 | IIIB |  | syncytia |  | >100 µg/mL |
| CCC1=C(C(=O)c2ccc(OC)cc2)C(c2cccc(O)c2)NC(=O)N1 |  |  | p24 / ELISA |  | >5 µM |
| CC[C@@H](C)[C@@H](CC(=O)O)NC(=O)c1ccccc1SSc1ccccc1C(=O)N[C@H](CC(=O)O)[C@H](C)CC | IIIB |  | cytopathic effect / XTT |  | 3.2 µM |
| Nc1cccc(S(=O)(=O)N(CC(O)CN(NCc2ccccc2)C(=O)c2ccccc2)CC2CCCC2)c1 | IIIB |  | p24 |  | <1 µM |
| CC(C)C[C@H](NC(=O)c1ccccc1SSc1ccccc1C(=O)N[C@@H](CC(C)C)C(=O)OCc1ccccc1)C(=O)OCc1ccccc1 | IIIB |  | cytopathic effect / XTT |  | >73 µM |
| COc1ccc(S(=O)(=O)N(CC(C)C)C[C@@H](O)CCN(CC2CCCC2)S(=O)(=O)C2CCCC2)cc1 | IIIB |  | p24 |  | <1 µM |
| CC1=C(C(=O)Nc2ccc(Cl)c(C(=O)OC(C)C)c2)SCCO1 | TSAO-resistant (RT E138K) | RT-E138K | syncytia |  | >20 µg/mL |
| CCc1cn([C@H]2C=C[C@@H](OCP(=O)(O)O)O2)c(=O)[nH]c1=O | IIIB |  | cytopathic effect / XTT |  | >100 µg/mL |
| CC(=O)Nc1ccc(SSc2ccc(NC(C)=O)cc2C(N)=O)c(C(N)=O)c1 |  |  | cytopathic effect / XTT |  | 5 µM |
| Nc1ccc(C(=O)c2ccc3[nH]c(=O)oc3c2)cc1 | IIIB |  | syncytia |  | >40 µg/mL |
| COC(=O)c1ccccc1SSc1ccccc1C(=O)OC |  |  | cytopathic effect / XTT |  | >9.3 µM |
| Cn1c(=O)sc2cc(C(=O)c3cccc([N+](=O)[O-])c3)ccc21 | IIIB |  | syncytia |  | >8 µg/mL |
| CC1=C(C(=O)Nc2cc(C(=O)OC(C)C)c(Cl)cc2F)SCCO1 | TIBO-resistant (RT L100I) | RT-L100I | syncytia |  | >10 µg/mL |
| NS(=O)(=O)c1ccc(NC(=O)c2ccccc2Sc2ccccc2C(=O)Nc2ccc(S(N)(=O)=O)cc2)cc1 |  |  | XTT |  | >100 µM |
| COc1ccc(S(=O)(=O)N(CC(C)C)C[C@@H](O)CCN(CC2CCCC2)S(=O)(=O)c2cccnc2)cc1 | IIIB |  | p24 |  | <1 µM |
| NC(=O)C[C@H](NC(=O)c1ccccc1SSc1ccccc1C(=O)N[C@@H](CC(N)=O)C(N)=O)C(N)=O | IIIB |  | cytopathic effect / XTT |  | >21 µM |
| N#CCCC12CC3CC(C1)CC(N1C(=O)c4ccccc4C1=O)(C3)C2 | IIIB |  | syncytia |  | >4 µg/mL |
| NC(=O)c1ccccc1SSc1ccccc1C(N)=O |  |  | cytopathic effect / XTT |  | >21 µM |
| CCCC(=O)Nc1ccc(C2NC(=O)NC(CC)=C2C(=O)OCC2CCCCC2)cc1 |  |  | p24 / ELISA |  | ≤1 µM |
| O=C1c2ccccc2C(=O)N1C1C2CC3CC(C2)CC1C3 | IIIB |  | syncytia |  | >4 µg/mL |
| CC1=C(C(=O)Nc2ccc(C)c(C(=O)OC(C)C)c2)SCCO1 | TSAO-resistant (RT E138K) | RT-E138K | syncytia |  | 8.5 µg/mL |
| Cn1c(=O)sc2cc(C(=O)c3cccc(F)c3)ccc21 | IIIB |  | syncytia |  | >200 µg/mL |
| O=C1c2ccccc2C(=O)N1CC12CC3CC(CC(O)(C3)C1)C2 | IIIB |  | syncytia |  | >20 µg/mL |
| Nc1nc(=O)n([C@H]2C=C[C@@H](OCP(=O)(O)O)O2)cc1I | IIIB |  | cytopathic effect / XTT |  | >100 µg/mL |
| COc1ccc(S(=O)(=O)N(CC(C)C)C[C@@H](O)C[C@H](Cc2ccccc2)CN2CSCC2C(=O)NC(C)(C)C)cc1 | IIIB |  | p24 |  | <1 µM |
| Nc1ccc2c(c1)C(=O)N(C13CC4CC(CC(C4)C1)C3)C2=O | IIIB |  | syncytia |  | >16 µM |
| Cc1ccc(C)c(CS(=O)(=O)c2cccc[n+]2[O-])c1 | IIIB | RT-E138K | syncytia |  | 12 µg/mL |
| CCn1cc(C(=O)O)c(=O)c2cc(F)c(N3CCN(CN4C(=O)O[C@](C#CC5CC5)(C(F)(F)F)c5cc(Cl)ccc54)CC3)cc21 | IIIB |  | MTT |  | 0.00379 µM |
| Cc1cc(C)c(CS(=O)c2cccc[n+]2[O-])c(C)c1 | IIIB | RT-L100I | syncytia |  | 4.5 µg/mL |
| CCC1=C(C(=O)OCC2CCCCC2)C(c2cc(F)c(O)c(OC)c2)NC(=O)N1 |  |  | p24 / ELISA |  | ≤1 µM |
| O=C1O[C@](C#CC2CC2)(C(F)(F)F)c2cc(Cl)ccc2N1CN1CCN(c2cccc(Cl)c2)CC1 | IIIB |  | MTT |  | 0.0024 µM |
| O=c1[nH]c(=O)n([C@H]2C=C[C@@H](OCP(=O)(O)O)O2)cc1Cl | IIIB |  | cytopathic effect / XTT |  | 10–24 µg/mL |
| CC1=C(C(=O)OCC2CCCCC2)C(c2ccc(O)cc2)NC(=O)N1 |  |  | p24 / ELISA |  | ≤1 µM |
| CC1=C(C(=O)Nc2ccc(Cl)c(C(=O)OC3CCCC3)c2)SCCO1 | PYR-resistant (RT Y181C) | RT-Y181C | syncytia |  | 0.26 µg/mL |
| NS(=O)(=O)c1ccc(NC(=O)c2cccc(SSc3cccc(C(=O)Nc4ccc(S(N)(=O)=O)cc4)c3)c2)cc1 |  |  | XTT |  | >100 µM |
| Cc1ccc(C)c(CS(=O)c2ccc(Cl)c[n+]2[O-])c1 | MN |  | syncytia |  | 7.6 µg/mL |
| CCCOC(=O)c1cc(NC(=O)C2=C(C)OCCS2)ccc1Cl | PYR-resistant (RT Y181C) | RT-Y181C | syncytia |  | 4.5 µg/mL |
| Nc1ccn([C@H]2CC[C@@H](CO)O2)c(=O)n1 | IIIB |  | cytopathic effect / XTT |  | <0.03 µg/mL |
| O=C(N[C@@H](CC1CCCCC1)C(=O)O)c1ccccc1SSc1ccccc1C(=O)N[C@@H](CC1CCCCC1)C(=O)O | IIIB |  | cytopathic effect / XTT |  | 2.45 µM |
| Cn1c(=O)sc2cc(C(=O)c3ccc(Cl)c(Cl)c3)ccc21 | IIIB |  | syncytia |  | >8 µg/mL |
| CCC1=C(C(=O)OCC2CCCCC2)C(c2ccc(OC(=O)c3ccncc3)c(Cl)c2)NC(=O)N1 |  |  | p24 / ELISA |  | ≤1 µM |
| Cc1cc(=O)c2c(O)c3c(O)cc(O)c4c5c(O)cc(O)c6c(O)c7c(=O)cc(C)c8c1c2c(c34)c(c65)c78 |  |  | ELISA | 7 d | <0.25 µg/mL |
| Cc1ccc(NC(=O)c2ccccc2SSc2ccccc2C(=O)Nc2ccc(C)cc2)cc1 |  |  | XTT |  | 9.1 µM |
| O=C(NNc1ccccc1)c1ccccc1SSc1ccccc1C(=O)NNc1ccccc1 |  |  | cytopathic effect / XTT |  | >5.2 µM |
| O=C(Nc1ccc(C[C@H](NC(=O)c2ccccc2SSc2ccccc2C(=O)N[C@@H](Cc2ccc(NC(=O)OCc3ccccc3)cc2)C(=O)O)C(=O)O)cc1)OCc1ccccc1 | IIIB |  | cytopathic effect / XTT |  | 13 µM |
| Cc1occc1C(=S)Nc1ccc(Cl)c(/C=N/OC(C)(C)C)c1 | IIIB | RT-L100I | syncytia |  | 0.242 µM |
| CC(C)[C@@H](CCC(=O)O)NC(=O)c1ccccc1SSc1ccccc1C(=O)N[C@H](CCC(=O)O)C(C)C | IIIB |  | cytopathic effect / XTT |  | 4.3 µM |
| CC(C)CC(NS(=O)(=O)c1ccccc1)C(F)(F)C(=O)[C@H](Cc1ccccc1)NC(=O)O[C@H]1CCOC1 | IIIB |  | p24 |  | <1 µM |
| COc1ccc(N2CCN(CN3C(=O)O[C@](C#CC4CC4)(C(F)(F)F)c4cc(Cl)ccc43)CC2)cc1 | IIIB |  | MTT |  | 0.00669 µM |
| O=C1c2ccc([N+](=O)[O-])cc2C(=O)N1C12CC3CC(CC(C3)C1)C2 | IIIB |  | syncytia |  | >304 µM |
| COc1ccc(S(=O)(=O)N(CC2CCCC2)C[C@@H](O)CN(CCc2ccccc2)C(=O)c2ccccc2)cc1 | IIIB |  | p24 |  | <0.1 µM |
| CCCCCCCCCC[N+](C)(C)CCCNCc1c(O)cc2c(c1O)-c1cc(ccc1O)[C@H]1NC(=O)[C@@H]3NC(=O)C4NC(=O)[C@@H](Cc5ccc(c(Cl)c5)Oc5cc3cc(c5O)Oc3ccc(cc3Cl)[C@@H](O)[C@H](NC1=O)C(=O)N[C@@H]2C(=O)O)NC(=O)[C@H](N)c1ccc(O)c(c1)Oc1cc(O)cc4c1 | HE |  | syncytia |  | 9.5 µM |
| CCC1=C(C(=O)OCC2CCCCC2)[C@H](c2cccc(OC(=O)[C@H](C)NC(=O)OC(C)(C)C)c2)NC(=O)N1 |  |  | p24 / ELISA |  | ≤1 µM |
| O=c1[nH]c2ccc(Cc3cccc(F)c3)cc2s1 | IIIB |  | syncytia |  | >1.6 µg/mL |
| COC(=O)[C@H](CCCCN)NC(=O)c1ccccc1SSc1ccccc1C(=O)N[C@@H](CCCCN)C(=O)OC | IIIB |  | cytopathic effect / XTT |  | 14.9 µM |
| O=C(Nc1cc(C(F)(F)F)cc(C(F)(F)F)c1)c1ccccc1SSc1ccccc1C(=O)Nc1cc(C(F)(F)F)cc(C(F)(F)F)c1 |  |  | XTT |  | >3.6 µM |
| C=CCOC(=O)[C@H](CC(C)C)NC(=O)c1ccccc1SSc1ccccc1C(=O)N[C@@H](CC(C)C)C(=O)OCC=C | IIIB |  | cytopathic effect / XTT |  | 25 µM |
| CC(C)OC(=O)c1cc(NC(=S)OC(C)C)ccc1Cl | IIIB | RT-Y188H | syncytia |  | 2.1 µM |
| O=C(O)C[C@H](Cc1ccccc1)NC(=O)c1ccccc1SSc1ccccc1C(=O)N[C@H](CC(=O)O)Cc1ccccc1 | IIIB |  | cytopathic effect / XTT |  | 2.1 µM |
| NS(=O)(=O)c1ccc(NS(=O)(=O)c2ccccc2SSc2ccccc2S(=O)(=O)Nc2ccc(S(N)(=O)=O)cc2)cc1 |  |  | XTT |  | >100 µM |

Repeating the final 10 entries:

COc1ccc(S(=O)(=O)N(CC2CCCC2)C[C@@H](O)CN(CCc2ccccc2)C(=O)c2ccccc2)cc1 ; strain: IIIB ; read by: p24 ; value: <0.1 µM
CCCCCCCCCC[N+](C)(C)CCCNCc1c(O)cc2c(c1O)-c1cc(ccc1O)[C@H]1NC(=O)[C@@H]3NC(=O)C4NC(=O)[C@@H](Cc5ccc(c(Cl)c5)Oc5cc3cc(c5O)Oc3ccc(cc3Cl)[C@@H](O)[C@H](NC1=O)C(=O)N[C@@H]2C(=O)O)NC(=O)[C@H](N)c1ccc(O)c(c1)Oc1cc(O)cc4c1 ; strain: HE ; read by: syncytia ; value: 9.5 µM
CCC1=C(C(=O)OCC2CCCCC2)[C@H](c2cccc(OC(=O)[C@H](C)NC(=O)OC(C)(C)C)c2)NC(=O)N1 ; read by: p24 / ELISA ; value: ≤1 µM
O=c1[nH]c2ccc(Cc3cccc(F)c3)cc2s1 ; strain: IIIB ; read by: syncytia ; value: >1.6 µg/mL
COC(=O)[C@H](CCCCN)NC(=O)c1ccccc1SSc1ccccc1C(=O)N[C@@H](CCCCN)C(=O)OC ; strain: IIIB ; read by: cytopathic effect / XTT ; value: 14.9 µM
O=C(Nc1cc(C(F)(F)F)cc(C(F)(F)F)c1)c1ccccc1SSc1ccccc1C(=O)Nc1cc(C(F)(F)F)cc(C(F)(F)F)c1 ; read by: XTT ; value: >3.6 µM
C=CCOC(=O)[C@H](CC(C)C)NC(=O)c1ccccc1SSc1ccccc1C(=O)N[C@@H](CC(C)C)C(=O)OCC=C ; strain: IIIB ; read by: cytopathic effect / XTT ; value: 25 µM
CC(C)OC(=O)c1cc(NC(=S)OC(C)C)ccc1Cl ; strain: IIIB ; changes: RT-Y188H ; read by: syncytia ; value: 2.1 µM
O=C(O)C[C@H](Cc1ccccc1)NC(=O)c1ccccc1SSc1ccccc1C(=O)N[C@H](CC(=O)O)Cc1ccccc1 ; strain: IIIB ; read by: cytopathic effect / XTT ; value: 2.1 µM
NS(=O)(=O)c1ccc(NS(=O)(=O)c2ccccc2SSc2ccccc2S(=O)(=O)Nc2ccc(S(N)(=O)=O)cc2)cc1 ; read by: XTT ; value: >100 µM